This note sets out measurements from patent US20140243348A1, “COMPOSITIONS AND METHODS FOR TREATING HERPES VIRUSES” (President and Fellows of Harvard College, priority 2011, published 2014).

By UniProt entry, the sequences of proteins in these tests, tags left out. Where a name states a change or a piece, a line headed by the entry shows the natural chain unless it says otherwise.
UniProt P17470: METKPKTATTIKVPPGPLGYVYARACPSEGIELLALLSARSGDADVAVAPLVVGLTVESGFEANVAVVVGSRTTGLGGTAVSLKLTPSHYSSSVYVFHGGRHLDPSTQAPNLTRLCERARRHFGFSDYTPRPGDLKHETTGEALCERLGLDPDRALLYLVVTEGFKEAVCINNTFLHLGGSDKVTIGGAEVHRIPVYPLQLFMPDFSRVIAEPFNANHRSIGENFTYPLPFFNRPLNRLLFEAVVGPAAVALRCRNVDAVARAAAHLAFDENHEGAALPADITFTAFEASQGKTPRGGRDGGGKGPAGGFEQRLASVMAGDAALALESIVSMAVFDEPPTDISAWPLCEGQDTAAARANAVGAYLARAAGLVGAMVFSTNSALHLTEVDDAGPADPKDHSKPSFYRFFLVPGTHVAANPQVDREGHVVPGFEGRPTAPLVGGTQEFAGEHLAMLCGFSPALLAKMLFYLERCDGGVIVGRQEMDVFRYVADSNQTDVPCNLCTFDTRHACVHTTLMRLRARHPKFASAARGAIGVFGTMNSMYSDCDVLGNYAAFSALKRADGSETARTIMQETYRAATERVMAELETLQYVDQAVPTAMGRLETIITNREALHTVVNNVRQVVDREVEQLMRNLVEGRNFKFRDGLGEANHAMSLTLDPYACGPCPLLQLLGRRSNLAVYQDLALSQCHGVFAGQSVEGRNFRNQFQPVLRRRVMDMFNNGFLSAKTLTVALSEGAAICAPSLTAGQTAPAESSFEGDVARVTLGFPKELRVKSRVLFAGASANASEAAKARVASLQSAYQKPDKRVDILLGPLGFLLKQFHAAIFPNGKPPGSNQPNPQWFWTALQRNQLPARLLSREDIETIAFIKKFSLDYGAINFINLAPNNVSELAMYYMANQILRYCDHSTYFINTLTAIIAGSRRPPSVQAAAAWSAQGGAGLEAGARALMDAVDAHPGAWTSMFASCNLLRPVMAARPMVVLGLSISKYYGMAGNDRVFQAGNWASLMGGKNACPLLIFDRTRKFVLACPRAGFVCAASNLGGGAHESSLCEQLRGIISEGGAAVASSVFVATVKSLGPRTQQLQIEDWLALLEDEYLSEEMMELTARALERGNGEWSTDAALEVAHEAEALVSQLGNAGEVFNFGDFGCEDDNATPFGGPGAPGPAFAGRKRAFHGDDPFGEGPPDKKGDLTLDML

For at least one entry, the source does not settle the construct or the ends of the probe.

This data set deals with ICP8 (wild type) (Herpes simplex virus 1 (strain KOS)) (UniProt P17470). Nature of the data set: EMSA. The following applies: 40 fmol DNA; 5% native polyacrylamide gel; purified recombinant protein; label: radiolabeled; single-stranded DNA. (In general: A gel shift assay detects complexes by their altered migration in electrophoresis.)

As for TTTTTTTTTTTTTTTTTTTTTTTTT [oligo(dT)25], the binding result was “binds”.
